This passage reports relative growth results from PubChem BioAssay AID720641 (ICCB-Longwood Screening Facility, Harvard Medical School, 2013).

This is a selection; strong and weak results do not stand in their true shares. Activity calls are given as the source filed them.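 Rule for the calls: active = relative growth at most 50% at the other temperature and 20+ points below 30 °C, or under 10% at both; inactive = the rest, inconclusive results apart.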

The nature of this experiment: S. aureus growth inhibition at 42 and 30 °C, primary screen, LtaS inhibitor project, RN4220, two temperatures (AID 720641). The conditions noted are these: OD600, 20 h, 42 °C, stronger effect = lower value.
For the compound `CN(C)C1(CNC(=O)c2ccc(C(C)(C)C)cc2)CCCCC1`, the relative growth is inactive: 95.2%.

On to `CC1CN(Cc2ccccc2)CCC1=O` (configuration not stated), for which the relative growth was inactive: 107%.

On to `CCN1CCC(Nc2ccc(F)cc2)CC1`, for which the relative growth was inactive: 99.9%.

As to `CC1CN(C)C(C)CC1Nc1ccccc1` (configuration not stated), the relative growth is inactive: 109%.

Consider `Cc1ccccc1C(=O)NCC1(N(C)C)CCCCC1`, for which the relative growth was inactive: 103%.

For `CC1CN(CCc2ccccc2)C(C)CC1=O` (configuration not stated), the relative growth is inactive: 106%.

Turning to `CN(C)c1ccc(C(=O)NCC2(N3CCCCC3)CCCCC2)cc1`, the relative growth is inactive: 93.3%.

For the compound `CC(C)(C)c1ccc(C(=O)NCC2(N3CCOCC3)CCCCC2)cc1`, the relative growth is inactive: 102%.

As for `CCOc1ncccc1C(=O)NCC1(N(C)C)CCCCC1`, the relative growth was inactive: 105%.

`COc1cc(C(=O)NCC2(N3CCOCC3)CCCCC2)cc(OC)c1OC`: the relative growth was inactive: 105%.

On to `O=C(NCC1(N2CCCCC2)CCCCC1)c1n[nH]c2ccccc12`, for which the relative growth is inactive: 93.3%.

For `CCOc1ncccc1C(=O)NCC1(N2CCCCC2)CCCCC1`, the relative growth was inactive: 77.5%.

In the case of `NC(=O)C1(Nc2ccccc2)CCN(Cc2ccccc2)CC1`, the relative growth is inactive: 86.7%.

Consider `O=C1CCN(CCc2ccccc2)CC1`, for which the relative growth is inactive: 89%.

For the compound `CN1CCC(Nc2ccc(F)cc2)CC1`, the relative growth was inactive: 85.8%.

On to `O=C(NCC1(N2CCOCC2)CCCCC1)c1ccccc1[N+](=O)[O-]`, for which the relative growth was inactive: 106%.

Regarding `O=C(NCC1(N2CCOCC2)CCCCC1)c1ccc([N+](=O)[O-])cc1`, the relative growth is inactive: 118%.

Regarding `O=C(NCC1(N2CCOCC2)CCCCC1)c1cc2ccccc2cc1O`, the relative growth was inactive: 109%.

Turning to `O=C(NCC1(N2CCOCC2)CCCCC1)c1ccccc1`, the relative growth is inactive: 103%.

Regarding `CCCN1CCC(Nc2cc(OC)cc(OC)c2)CC1`, the relative growth was inactive: 89.6%.

As to `Cc1c(C(=O)NCC2(N3CCOCC3)CCCCC2)oc2c(Cl)cccc12`, the relative growth was inactive: 91.4%.

Regarding `Cn1nc(C(=O)NCC2(N3CCCCC3)CCCCC2)c2ccccc2c1=O`, the relative growth is inactive: 88%.

On to `CC(C)(C)OC(=O)N1CCC(Nc2ccc(OC(F)(F)F)cc2)CC1`, for which the relative growth is inactive: 103%.

`CCOc1ccc(C(=O)NCC2(N3CCOCC3)CCCCC2)cc1`: the relative growth is inactive: 111%.

For the compound `CCCOc1cccc(C(=O)NCC2(N3CCOCC3)CCCCC2)c1`, the relative growth is inactive: 96.7%.

For `FC(F)(F)Oc1ccc(NC2CCNCC2)cc1`, the relative growth was inactive: 116%.

With `NC(=O)C1(Nc2ccc(F)cc2)CCNCC1`, the relative growth is inactive: 94.3%.

In the case of `c1ccc(CN2CCC(Nc3ccc4c(c3)OCO4)CC2)cc1`, the relative growth is inactive: 83.8%.

On to `O=C(NCC1(N2CCOCC2)CCCCC1)c1ccccc1Br`, for which the relative growth is inactive: 107%.

On to `Cc1ccc(C(=O)NCC2(N(C)C)CCCCC2)o1`, for which the relative growth is inactive: 96.8%.

Turning to `CCCCOc1ccccc1C(=O)NCC1(N2CCOCC2)CCCCC1`, the relative growth was inactive: 100%.

In the case of `CCCN1CCC(Nc2ccc(OC)c(OC)c2)CC1`, the relative growth was inactive: 78.8%.

Consider `COc1ccc(C(=O)NCC2(N3CCCCC3)CCCCC2)cc1`, for which the relative growth was inactive: 88.3%.

Take `Cc1ccccc1NC1CC(C)(C)NC(C)(C)C1`: the relative growth is inactive: 92.2%.

Consider `CC1CN(CCc2ccccc2)CCC1=O` (configuration not stated), for which the relative growth is inactive: 87.6%.

`N#CC1(Nc2ccccc2)CCN(Cc2ccccc2)CC1`: the relative growth was inactive: 98.4%.

With `O=C1CCN(Cc2ccccc2)CC1`, the relative growth is inactive: 102%.

In the case of `O=C(NCC1(N2CCOCC2)CCCCC1)c1ccc2nc[nH]c2c1`, the relative growth is inactive: 102%.

Turning to `O=C(NCC1(N2CCOCC2)CCCCC1)c1ccc(Cl)cc1`, the relative growth was inactive: 91.6%.

For `COc1ccccc1C(=O)NCC1(N2CCOCC2)CCCCC1`, the relative growth is inactive: 113%.

`CCOC(=O)N1CCC(Nc2ccc(F)cc2)CC1`: the relative growth was inactive: 108%.

As for `CCOC(=O)N1CCC(Nc2cccc(C)c2)CC1`, the relative growth was inactive: 98.4%.
